In this data set the target is T1, ZafA (UniProt A3QX02).
T1 sequence (looked up, limits assumed): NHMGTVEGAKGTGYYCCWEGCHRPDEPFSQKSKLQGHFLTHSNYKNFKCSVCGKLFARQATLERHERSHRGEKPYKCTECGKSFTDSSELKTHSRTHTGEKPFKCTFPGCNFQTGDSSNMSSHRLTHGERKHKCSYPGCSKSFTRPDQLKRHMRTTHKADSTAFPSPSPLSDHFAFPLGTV
The experiment in a line: EMSA. The conditions noted are these: copper added (partial inhibition); 10 mM Tris-HCl pH 8.0, 50 mM NaCl, 1 mM MgCl2, 500 uM EDTA, 500 uM DTT, 4% glycerol; 500 ng ZafA, 5 ng probe; 30 min at 25 C; Zn/Cu added 10 min after start of binding; recombinant protein; protein details: His-tag (pET-21(+), E. coli BL21); label: 32P; probe letters rebuilt from the primers and the genome. (In general: A gel shift assay detects complexes by their altered migration in electrophoresis.)

For at least one entry, the source does not settle the construct or the ends of the probe. Weaker means in comparison with the reference protein, sequence or condition of that experiment. Where a protein sequence is shown, tags need not be part of it.

As for “AAGGGCCCAGGGCCTGTCTTGTTGTACGACTTCACTTTCTCCCAGGGTGCCACTGCTTGCTATCTCTATGTAGATAACCGCTGTCTTTCCTCTTTTTTTGACCCTTTCTTCTATTGCTCTGGTCTGCT (double strand) [CtrC promoter EMSA probe, 128 bp]”, the binding result is listed as “binds more weakly”.

(Values after PMC7593903.)
